Experimental data from publication PMC8122397, “Synthesis of New Triazolopyrazine Antimalarial Compounds” (Molecules, 2021).

Key:
[1] = test system: Plasmodium falciparum 3D7 (chloroquine-sensitive strain); test: In vitro anti-plasmodial image-based asexual assay, 3D7 strain; type: cell-based; settings: SI = HEK293 IC50/parasite IC50
Method: (§1) The semisynthesized/functionalized triazolopyrazine compounds and the scaffold triazolopyrazine precursors, compounds 1–18, were tested for their antimalarial activity against the 3D7 (chloroquine-sensitive strain) and Dd2 (chloroquine, pyrimethamine, and mefloquine resistant strain) P. falciparum. Where an accurate IC50 value could not be determined due to 100% growth inhibition and a plateau not being reached, but where ≥90% growth inhibition was attained at the top screening concentration, an estimated IC50 value was calculated.
(§2) Plsamodium falciparum 3D7 and Dd2 parasites were cultured in RPMI1640 (Life Technologies, Camarillo, CA, USA) supplemented with 2.5 mg/mL Albumax II, 5% AB human serum, 25 mM HEPES, and 0.37mM hypoxanthine. Ring stage parasites were treated with compounds following two rounds of sorbitol synchronization, as previously described. Artesunate and pyrimethamine were incorporated as controls. Following incubation of assay plates for 72 h at 37 °C, and 5% CO2 and 5% O2, parasites were stained with 2-(4-amidinophenyl)-1H-indole-6-carboxamidine (DAPI) and imaged using an Opera QEHS confocal imaging system (PerkinElmer, Waltham, MA, USA). Images were analyzed, as previously described, using Acapella spot detection software (PerkinElmer, Waltham, MA, USA).
(§3) Normalizing of raw data used the in-plate positive (5 μM puromycin 100% inhibition) and negative (0.4% DMSO–no inhibition) controls to obtain percent inhibition and then used to calculate IC50 values through a 4 parameter logistic curve fitting in GraphPad Prism v.6.

[2] = test system: Plasmodium falciparum Dd2 (chloroquine, pyrimethamine, and mefloquine drug-resistant strain); test: In vitro anti-plasmodial image-based asexual assay, Dd2 strain; type: cell-based; settings: SI = HEK293 IC50/parasite IC50
Method: as §1, §2, §3

SMILES	SI for 3D7 [1]	SI for Dd2 [2]
Clc1ccc(-c2nnc3cncc(Cl)n23)cc1 [Compound 7]	>6	>5
FC(F)Oc1ccc(-c2nnc3cncc(Cl)n23)cc1 [Compound 1]	>4	>3
N#Cc1ccc(-c2nnc3cncc(Cl)n23)cc1 [Compound 9]	>4	>3
C[C@H]1[C@H](OC(=O)CCC(=O)O)O[C@@H]2O[C@@]3(C)CC[C@H]4[C@H](C)CC[C@@H]1[C@@]24OO3 [Artesunate, reference compound]	>2874	>5000
CC(F)(F)c1ncc(Cl)n2c(-c3ccc(Cl)cc3)nnc12 [Compound 15, 5-Chloro-3-(4-chlorophenyl)-8-(1,1-difluoroethyl)-[1,2,4]triazolo[4,3-a]pyrazine]	>46	>31
FC(F)(F)c1ncc(Cl)n2c(-c3ccc(Cl)cc3)nnc12 [Compound 14, 5-Chloro-3-(4-chlorophenyl)-8-(trifluoromethyl)-[1,2,4]triazolo[4,3-α]pyrazine]	>16	>12
Cc1ncc(OCC(F)(F)F)n2c(-c3ccc(OC(F)F)cc3)nnc12 [Compound 12, 3-[4-(Difluoromethoxy)phenyl]-8-methyl-5-(2,2,2-trifluoroethoxy)-[1,2,4]triazolo[4,3-a]pyrazine]	>2	
FC(F)Oc1ccc(-c2nnc3cncc(OCCc4ccccc4)n23)cc1 [Compound 2, 3-[4-(Difluoromethoxy)phenyl]-5-(2-phenylethoxy)-[1,2,4]triazolo[4,3-α]pyrazine]	>258	>148
CCc1nc(N)nc(N)c1-c1ccc(Cl)cc1 [Pyrimethamine, reference compound]	>331	
CC(F)(F)c1nccn2c(-c3ccc(Cl)cc3)nnc12 [Compound 16, 3-(4-Chlorophenyl)-8-(1,1-difluoroethyl)-[1,2,4]triazolo[4,3-a]pyrazine]	>12	>3
FC(F)Oc1ccc(-c2nnc3cncc(OCC(F)(F)F)n23)cc1 [Compound 3, 3-[(4-Difluoromethoxy)phenyl]-5-(2,2,2,-trifluroethoxy)-[1,2,4]triazolo[4,3-α]pyrazine]	>4	>3
Cc1ncc(Cl)n2c(-c3ccc(C#N)cc3)nnc12 [Compound 10, 4-(5-Chloro-8-methyl-1,2,4-triazolo[4,3-α]pyrazin-3-yl)benzonitrile]	>2	>2
Cc1ncc(Cl)n2c(-c3ccc(OC(F)F)cc3)nnc12 [Compound 11, 5-Chloro-3-[(4-difluoromethoxy)phenyl]-8-methyl-[1,2,4]triazolo[4,3-α]pyrazine]	>6	>2
Cc1ncc(OCCc2ccccc2)n2c(-c3ccc(OC(F)F)cc3)nnc12 [Compound 13, 3-[4-(Difluoromethoxy)phenyl]-8-methyl-5-(2-phenylethoxy)-[1,2,4]triazolo[4,3-a]pyrazine]	>7	>9
Cc1ncc(Cl)n2c(-c3ccc(Cl)cc3)nnc12 [Compound 8, 5-Chloro-3-(4-chlorophenyl)-8-methyl-[1,2,4]triazolo[4,3-α]pyrazine]	>4	>2
COc1ccc(C[C@H](N)C(=O)N[C@H]2[C@@H](O)[C@H](n3cnc4c(N(C)C)ncnc43)O[C@@H]2CO)cc1 [Puromycin, reference compound]	12	11
FC1(F)CCC(c2ncc(Cl)n3c(-c4ccc(Cl)cc4)nnc23)CC1 [Compound 17, 5-Chloro-3-(4-chlorophenyl)-8-(4,4-difluorocyclohexyl)-[1,2,4]triazolo[4,3-a]pyrazine]	>3	
